In patent publication US20110274702A1 (INSTITUTE FOR RESEARCH IN BIOMEDICINE, published 2011):

Tests used:
[1] = molecular target: H7N1 A/ck/FPV/Ro/34 HA on pseudotyped virus (influenza A virus H7N1 …, UniProt P03459 19-563); test: cell-based or functional assay
HA A/VN/1194/04 (H5) = HA A/VN/1194/04 (H5) (influenza A virus H5 A/VN/1194/04); test: cell-based or functional assay
[2] = molecular target: H6N5 A/shearwater/Australia/1/72 HA protein (influenza A virus H6N5 …); test: ELISA on coated HA
[3] = molecular target: H8N4 A/Alberta/357/84 HA protein (influenza A virus H8N4 A/Alberta/357/84); test: ELISA on coated HA
[4] = molecular target: H7N3 A/Canada/444/04 HA protein (influenza A virus H7N3 A/Canada/444/04); test: ELISA on coated HA
[5] = molecular target: H5N1 A/Viet Nam/1/05 HA protein (influenza A virus H5N1 A/Viet Nam/1/05); test: ELISA on coated HA
[6] = molecular target: H9N2 A/Hong Kong/1073/99 HA protein (influenza A virus H9N2 A/Hong …); test: ELISA on coated HA
[7] = molecular target: H5N1 A/Viet Nam/1203/04 HA protein (influenza A virus H5N1 A/Viet …); test: ELISA on coated HA
[8] = molecular target: H10N4 A/mink/Sweded/3900/84 HA protein (influenza A virus H10N4 …); test: ELISA on coated HA
[9] = molecular target: H7N7 A/Netherlands/219/03 HA protein (influenza A virus H7N7 …); test: ELISA on coated HA

B1: FI6 variant 4 (antibody, V domains shown)
VH: QVQLVQSGGGVVQPGRSLRLSCVASGFTFSTYAMHWVRQAPGRGLEWVAVISYDANYKYYADSVKGRFSISRDNSQNTLHLEMNTLRTEDTALYYCAKDSQLRSLLYFEWLSQGYFEPWGQGTLVTVTS
VL: DIVMTQSPDSLAVSLGERATINCKSSQSVTFNYKNYLAWYQQKPGQPPKLLIYWASTRESGVPDRFSGSGSGTDFTLTISSLQAEDVAVYYCQQHYRTPPTFGQGTKVEIK
Q: With B1 as the binder, how does the “Neutralization H7 A/ck/FPV Rostock/34 pseudovirus, IC50” value [1] read?
A: 0.0093 µg/mL

Q: What about the “Neutralization H5 A/VN/1194/04 pseudovirus, IC50” value (HA A/VN/1194/04 (H5)) of the same binder?
A: 3.5 ng/mL

B2: FI6 variant 5 (antibody, V domains shown)
VH: QVQLVQSGGGVVQPGRSLRLSCVASGFTFSTYAMHWVRQAPGRGLEWVAVISYDANYKYYADSVKGRFSISRDNSQNTLHLEMNTLRTEDTALYYCAKDSQLRSLLYFEWLSQGYFEPWGQGTLVTVTS
VL: DIVMTQSPDSLAVSLGERATINCKSSQSVTFNNKNYLAWYQQKPGQPPKLLIYWASTRESGVPDRFSGSGSGTDFTLTISSLQAEDVAVYYCQQHYRTPPTFGQGTKVEIK
Q: With B2 as the binder, how does the “Neutralization H7 A/ck/FPV Rostock/34 pseudovirus, IC50” value [1] read?
A: 0.022 µg/mL

Q: And the “Neutralization H5 A/VN/1194/04 pseudovirus, IC50” value (HA A/VN/1194/04 (H5))?
A: 5.4 ng/mL

B3: FI6 variant 2 (antibody, V domains shown)
VH: QVQLVQSGGGVVQPGRSLRLSCVASGFTFSTYAMHWVRQAPGRGLEWVAVISYDGNYKYYADSVKGRFSISRDNSNNTLHLEMNTLRTEDTALYYCAKDSQLRSLLYFEWLSQGYFDPWGQGTLVTVTS
VL: DIQMTQSPDSLAVSLGARATINCKSSQSVTFNYKNYLAWYQQKPGQPPKVLIYWASARESGVPDRFSGSGSGTDFTLTISSLQAEDVAVYYCQQHYRTPPTFGQGTKVEIK
Q: What does the source list for B3?
A: EC50 [2]: 0.041 µg/mL; EC50 [3]: 0.033 µg/mL; EC50 [4]: 0.033 µg/mL; EC50 [5]: 0.01 µg/mL; EC50 [6]: 0.014 µg/mL; EC50 [7]: 0.014 µg/mL; EC50 [8]: 0.09 µg/mL

B4: FI6 variant 3 (antibody, V domains shown)
VH: QVQLVESGGGVVQPGRSLRLSCAASGFTFSTYAMHWVRQAPGKGLEWVAVISYDANYKYYADSVKGRFTISRDNSKNTLYLQMNSLRAEDTAVYYCAKDSQLRSLLYFEWLSQGYFDYWGQGTLVTVSS
VL: DIVMTQSPDSLAVSLGERATINCKSSQSVTFNYKNYLAWYQQKPGQPPKLLIYWASTRESGVPDRFSGSGSGTDFTLTISSLQAEDVAVYYCQQHYRTPPTFGQGTKVEIK
Q: For B4, which EC50 [9] is on record?
A: 0.029 µg/mL
